Anti-infective test results gathered from many reports (values: NIAID ChemDB through PubChem).

Common to all: growth or infection tests; species: HIV-1; read-out: EC50

a–b is a range or a potency band. Lines come from different laboratories, so protocols vary. Blank or dashed fields: not listed here. ECn is the concentration giving n% inhibition of infection, replication or growth.

compound | cell line | read by | strain | mutations | result
CC(=O)c1c(C)nc(-c2ccccc2)nc1NC(=O)c1ccccc1 | HeLa | GFP / fluorescence | 12AG | - | >50 µM
CC(C)C1=C2[C@H]3CC[C@@H]4[C@@]5(C)CC[C@H](OC(=O)[C@H]6C[C@@H](C(=O)O)C6(C)C)C(C)(C)[C@@H]5CC[C@@]4(C)[C@]3(C)CC[C@@]2(CC(=O)NC2(c3ccc(Cl)cc3)CCCCC2)CC1=O | MT-2 | p24 / ELISA | 92HT599 | - | <1 µM
Cc1cc(Cl)cc(C(=O)c2cc(Cl)ccc2OCC(=O)Nc2ccc(S(N)(=O)=O)cc2C)c1 | HeLa + HELA CD4+ | β-galactosidase | HXB2 | RT-V106I Y181C | 0.011–0.1 µM
CCCO[C@H](C(=O)O)c1c(C)ncc(-c2ccc(OCC3CC3)cn2)c1N1CCC(C)(C)CC1 | MT-2 | luminescence | NL4-3 | - | 0.017 µM
COCCOc1ccc(CNC[C@H](O)[C@@]23CC[C@]4(C)[C@H](CC[C@@H]5[C@@]6(C)CC[C@H](OC(=O)[C@H]7C[C@@H](C(=O)O)C7(C)C)C(C)(C)[C@@H]6CC[C@]54C)C2=C(C(C)C)C(=O)C3)cc1 | MT-2 | p24 / ELISA | 92HT599 | - | <1 µM
Cc1ncc(-c2ccc(SCC(C)C)nc2)c(N2CCC(C)(C)CC2)c1[C@H](OC(C)(C)C)C(=O)O | MT-2 | luminescence | NL4-3 | - | 0.0044 µM
Cc1cc(C#N)cc(C(=O)c2cc(Cl)ccc2OCC(=O)Nc2ccc(S(N)(=O)=O)cc2C)c1 | HeLa + HELA CD4+ | β-galactosidase | HXB2 | RT-V106I | <0.01 µM
CCCCO[C@H](C(=O)O)c1c(C)ncc(-c2ccc(OCC3CCC3)cn2)c1N1CCC(C)(C)CC1 | MT-2 | luminescence | NL4-3 | - | 0.02 µM
CN1c2ccccc2C2C1C=C(C#N)C(=O)N2c1ccc([N+](=O)[O-])cc1 | HeLa | GFP / fluorescence | 10076-4 | - | 0.14 µM
CCc1cc(C#N)cc(C(=O)c2cc(Cl)ccc2OCC(=O)Nc2ccc(S(N)(=O)=O)cc2C)c1 | HeLa + HELA CD4+ | β-galactosidase | HXB2 | RT-V106A Y181C | <0.01 µM
CC(C)C1=C2[C@H]3CC[C@@H]4[C@@]5(C)CC[C@H](OC(=O)[C@H]6C[C@@H](C(=O)O)C6(C)C)C(C)(C)[C@@H]5CC[C@@]4(C)[C@]3(C)CC[C@@]2(CCN(CCN(C)C)Cc2nccs2)CC1=O | MT-2 | p24 / ELISA | 92HT599 | - | <1 µM
Cc1cc(S(N)(=O)=O)ccc1NC(=O)COc1ccc(Cl)cc1C(=O)c1cc(F)cc(F)c1 | HeLa + HELA CD4+ | β-galactosidase | HXB2 | RT-K101E | <0.01 µM
Cc1ncc(-c2ccc(OCCOc3ccc(F)cc3)cn2)c(N2CCC(C)(C)CC2)c1[C@H](OC(C)(C)C)C(=O)O | MT-2 | luminescence | NL4-3 | - | 0.0007 µM
CC(C)C1=C2[C@H]3CC[C@@H]4[C@@]5(C)CC[C@H](OC(=O)[C@H]6C[C@@H](C(=O)O)C6(C)C)C(C)(C)[C@@H]5CC[C@@]4(C)[C@]3(C)CC[C@@]2([C@@H](O)CNC(=O)C2CCNCC2)CC1=O | MT-2 | p24 / ELISA | 92HT599 | - | <1 µM
C=C(C)COc1ccc(-c2cnc(C)c([C@H](OC(C)(C)C)C(=O)O)c2N2CCC(C)(C)CC2)nc1 | MT-2 | luminescence | NL4-3 | - | 0.0033 µM
O=C(COc1ccc(Cl)cc1C(=O)c1ccccc1)Nc1ccc(-n2cncn2)cc1 | HeLa + HELA CD4+ | β-galactosidase | HXB2 | RT-K103N | 0.011–0.1 µM
CC(C)C1=C2[C@H]3CC[C@@H]4[C@@]5(C)CC[C@H](OC(=O)[C@H]6C[C@@H](C(=O)O)C6(C)C)C(C)(C)[C@@H]5CC[C@@]4(C)[C@]3(C)CC[C@@]2(CC(=O)NCCNC(=O)c2ccc(Cl)cc2)CC1=O | MT-2 | p24 / ELISA | 92HT599 | - | <1 µM
Cc1ncc(-c2ccc(OC[C@@H](C)Oc3ccccc3)nc2)c(N2CCC(C)(C)CC2)c1[C@H](OC(C)(C)C)C(=O)O | MT-2 | luminescence | NL4-3 | - | 0.001 µM
Cc1cc(C#N)cc(C(=O)c2cc(Cl)ccc2OCC(=O)Nc2cnc(S(N)(=O)=O)cc2C)c1 | HeLa + HELA CD4+ | β-galactosidase | HXB2 (RT-K103N G190A) Recombinant | RT-K103N G190A | <0.01 µM
Cc1cncc(CN(CCN(C)C)C[C@H](O)[C@@]23CC[C@]4(C)[C@H](CC[C@@H]5[C@@]6(C)CC[C@H](OC(=O)[C@H]7C[C@@H](C(=O)O)C7(C)C)C(C)(C)[C@@H]6CC[C@]54C)C2=C(C(C)C)C(=O)C3)n1 | MT-2 | p24 / ELISA | 92HT599 | - | <1 µM
Cc1cc(S(N)(=O)=O)ccc1NC(=O)COc1ccc(Cl)cc1C(=O)c1cc(F)cc(C(F)(F)F)c1 | HeLa + HELA CD4+ | β-galactosidase | HXB2 | RT-P225H | <0.01 µM
Cc1ncc(-c2ccc(OCCCC(F)(F)F)cn2)c(N2CCC(C)(C)CC2)c1[C@H](OC(C)(C)C)C(=O)O | MT-2 | luminescence | NL4-3 | - | 0.002 µM

3 of the rows above, restated:

compound,cell line,read by,strain,mutations,result
Cc1cc(S(N)(=O)=O)ccc1NC(=O)COc1ccc(Cl)cc1C(=O)c1cc(F)cc(C(F)(F)F)c1,HeLa + HELA CD4+,β-galactosidase,HXB2,RT-P225H,<0.01 µM
Cc1ncc(-c2ccc(OC[C@@H](C)Oc3ccccc3)nc2)c(N2CCC(C)(C)CC2)c1[C@H](OC(C)(C)C)C(=O)O,MT-2,luminescence,NL4-3,-,0.001 µM
Cc1cc(S(N)(=O)=O)ccc1NC(=O)COc1ccc(Cl)cc1C(=O)c1cc(F)cc(F)c1,HeLa + HELA CD4+,β-galactosidase,HXB2,RT-K101E,<0.01 µM